Results on one sequence are retold here after publication PMC8445491.

The data set concerns the target MtrA~P phosphorylated via wild-type MtrB (UniProt P9WGM7). Nature of the data set: EMSA. The note with it: recombinant protein; protein details: 6xHis (pProEx-HT); label: 32P 5' end label; probe letters rebuilt from the primers and the genome. Background: In EMSA bound probe runs differently from free probe, usually more slowly.

Construct, isoform or probe ends are uncertain for at least one entry.

For “TTGCGCCCTTTCACCTCACGATGAGTTCGATCCCGTGGCTAGCGCCCCGCTAGCGTGGGGACTGCCAACGACGAATGCCCATGACGCGTGACCCGCCACGACGGCCGCAACAGCAGTCGAACAACAACCGTAGAGCTTCTCACGTCAACTTGAAAGTTCATCATTGACCTCTGACCCACCGCGACGAGCCAGTTATGCGGGTGGTATCCAGCGAACGATCCCCAGCGCTGTCTTTCCAAGAACAAACGACGAAGAAATCTCGGTAACAGTATTAGAGGGTGTGCAGTTTGGGGACAGTCTGGTCTTGGTGCAGGTCGACGTCGGTCGGAGTTGTGGATGACGGTGGCGATGACTGTGGGGTGTGTGTTGGGTCGGTGGGGATGAGGCGTGGGTTGTGAACGGAACCGCCGGGACTGTATGAGTCTGTGCGCGGTTTGTGCACAGCGACACTCACAGCCAATCTCTGTGACTGGTGTGACCTGGGAGAGAGAAGTTTTTTTAAGAACGTTGTCGGAAGAACACGCCGTGCTAGCGCTTGGAGCGCTGACGGATG (double strand) [oriC 526 bp]”, the binding result is “binds”.
